Results reported in patent US20090241222A1, “TANDEM REAPEAT DNA CONSTRUCTS PRODUCING PROTEINS THAT ATTACK PLANT PATHOGENIC VIRUSES, FUNGI, AND BACTERIA BY DISRUPTING TRANSCRIPTION FACTORS ESSENTIAL FOR REPLICATION THEREOF IN PLANTS” (priority 2008, published 2009).

System: pathogenic fungus present in the test tube water
Assay: Portulaca resistance to pathogenic fungus induced by picolinic acid (FIG. 31)
Conditions: plants continuously exposed to 6 mM PA, 10 days

## O=C(O)c1ccccn1 [picolinic acid, 2-pyridine carboxylic acid]
  root system: profuse root system
